# The supplement of paper PMC12637763
# Changes are numbered by the printed parent chain. Some of the results follow. Env chains of viruses from a treatment-interruption trial, translated from the printed DNA. IC50 / IC80 of two broadly neutralizing antibodies; lower = more sensitive virus; >50 µg/ml means not reached and <0.001 µg/ml is below the lowest dose. No active / inactive call.
# B1: HIV-1 Env, reservoir clone (protein)
# chain: MKAKETRKNYQHLWRWGIMLLGMLMICSAASQLWVTVYYGVPVWKEATTTLFCASDAKAYDTEVHNVWATHACVPTDPNPQEVVLGNVTEDFNMWKNNMVEQMHEDIISLWDQSLKPCVKITPLCVTLNCTEYSNATSTTWGQMEKGEIKNCSFNVTTNIKNKMQKEYALFYKLDVVPIGDNSTNYRLIKCNTSAITQACPKVSFQPIPIHYCAPAGFAILKCNNKTFNGLGPCTNVSTVQCTHGIRPVVSTQLLLNGSLAEEEIVIRSENFSDNAKNIIVHLNASIEINCTRPNNNTRKSITIGPGRAFYATGDVIGDIRQAHCNISGEKWNEALKQIAIKLREQFGHDKTIVFNQSSGGDPEIVAHSVNCGGEFFYCNSTKLFNSTWHSNGTQNNTTESNETITLPCKIKQIINLWQEVGKAIYAPPISGPIRCSSNITGLLLTRDGGHTSETNKETFRPGGGDMRDNWRSELYKYKVVKIEPLGVAPTKAKRRVVQRERRAVGTFGALFLGFLGTAGSTMGAASITLTVQARQLLSGIVQQQNNLLKAIEAQQHLLQLTVWGIKQLQARVLAVERYLKDQQLLGLWGCSGKLICTTTVPWNASWSNKSLEQIWENMTWMQWEKEIDNYTGIIYSLISESQLQQEKNEKELLELDKWASLWTWFDITNWLWYIRIFIMIVGGLIGLRIVFAVLSIVNKVRKGYSPLSFQTRLPTPRGPDRPEGIEEEGGERGRDTSIRLVDGFLALIWDDLRNLCLFSYHHLRDLILIVVRTVELLGRRGWELLKYWWNLLKYWSQELKKSAVSLFNAAAIAVAEGTDRVIEVVQRAGRGILHVPRRIRQGLERALQ
# B2: HIV-1 Env, reservoir clone (protein)
# chain: B1 chain with D350N, R676K
# B3: HIV-1 Env, rebound clone, antibody arm (protein)
# chain: MRVRGIPRNWQHLWTWWTLTLGLVIICSTSDNLWVTVYYGVPVWEDADTPLFCASDAKAYSTEKHNVWATHACVPTDPNPQELHLENVTEEFNMWKNNMVEQMHEDIISLWDEALKPCVKLTPLCVTLNCVSLNCSSVNKNVTNGNNSTECAEERENLRNCSFNVTTELKDKKEQTYALFYKLDVVQLNSGNNNNNTYRLINCNVSAIKQACPKVTFDPIPIHYCAPAGFAILKCNDKNFNGTGQCHNVSTVLCTHGIKPVVSTQLLLNGSLSEDEIVIKSENITDNAKSIIVQLNSTVSITCSRPNNNTRKSIRIGPGQVFYAQGDIIGDIRQAHCNVNRGNWTKVMQEVKGQLQKIFNKNITFNSSTGGDLEITTHSFNCRGEFFYCNTTGLFDDTLFNNNNTNDTSPITLPCKIKQIVRMWQRVGQAMYAPPIAGEITCISNITGLLLTRDGGNTTNASNETFRPGGGNMRDNWRSELYKYKVVKIKPLGVAPTKARRRVVQREKRAVGLGAVFLGFLGTAGSTMGAASITLTVQVRQLLSGIVQQQSNLLRAIEAQQHLLQLTVWGIKQLQARVLAVERYLKDQQLLGIWGCSGKLICTTNVPWNTSWSNKSYNEIWDNMTWMQWDKEVRNYSQQIYDLIQESQTQQEKNEQELLALDKWTSLWSWFDISSWLWYIKIFIMIVGGLIGLRIVFAVLSIVKRVRQGYSPLSFQTLTHHQREPDRPEGIEEGGGEQDKDRSIRLVSGFLPLAWDDVRSLCLFLYHRLRDFILIAARTLELLGRSCLQGLRLGREGLKYLWNLLVYWGQELKNSAINLFDTAAIVVANWTDRVIEIAQGIGRAILNIPRRIRQGLERALL
# B4: HIV-1 Env, rebound clone, antibody arm (protein)
# chain: B3 chain with H336Y
# B5: HIV-1 Env, reservoir clone (protein)
# chain: MKVKVTMRNYQNLWRGGTLLLGMLMICSGAEQLWVTVYYGVPVWKEANTTLFCASDAKAYDTEVHNVWATHACVPTDPSPQEVVLENVTEDFNIWKNNMVEQMHEDIISLWDQSLKPCVKLTPLCVTLNCSNVNNQTGTNNNSSHGKDVEGEMKNCSFNVTTNIRDKIKREYALLYKLDIVPIDNDNTSYTLTSCNTSVITQACPKVSFEPIPIHYCAPAGFAILKCNNKTFNGKGPCTNVSTVQCTHGIRPVVSTQLLLNGSLAEDVVLRSENFTNNAKTIIVQLKEPVIINCTRPNNNTRKSIPMGPGRAWYTTGEIIGDIRQAHCNISKAQWNKTLQQVVTKLREQFGNKTIVFNQPTGGDPEIVMHSFNCGGEFFYCNTSKLFNSTWNNSTQGINSTGESNTTITIQCKIKQIINMWQQVGKAMYAPPIAGQIKCSSNITGLLLTRDGGGNKTENETFRPAGGDMRDNWRSELYKYKVVQIKPLGIAPTKAKRRVVQREKRAVGIGALFLGFLGAAGSTMGAAAVTLTVQARQLLSGIVQQQNNLLRAIEAQQHMLQLTVWGIKQLQARVLAVERYLRDQQLLGIWGCSGKLICTTTVPWNNSWSNKSLDDIWGNMTWMEWEKEIDNYTYTIYKLIEESQNQQEKNEQELLELDKWANLWNWFDITNWLWYIKIFIIIVGGLIGLRIVFAVLSIVNRVRQGYSPLSLQTLLPAPRGPDRPGEIEKEGGERDKDTSVRLVNGFLAIIWDDLRSLCLFSYRHLRDLLLIVTRIVGLLGHRGWEVLRYWWNLLQYWIQELKNSAVSLLNVTAIAVAEGTDRVIEIAQRACRAVLHIPRRIRQGLERGLL
# B6: HIV-1 Env, reservoir clone (protein)
# chain: MRVRGIRKNYQRLWGWGITLLGMLMICSATEKMWVTVYYGVPVWKEATTTLFCASDAKAYDKEVHNVWATHACVPTDPSPQEVGLENVTETFNMWKNNMVDQMHEDIMSLWDQSLKPCVKLTPLCVTLNCTDATKVNASEINNSSLGEMKNCSFNITTSIRDKIQRTYAYFYKLDLVPIDTNNTSYRLISCNTSVITQACPKVSFEPIPIHYCAPAGFAILKCRDKKFNGKGECRNVSTVQCTHGIRPVVSTQLLLNGSLAEEEVVIRSNNFTDNAKTIIVQLNQSVQINCTRPNNNRRKSINIGPGRAFYAAGDIIGDIRQAHCNISRTKWNNTLRQIVEKLKEQFPNKTIVFNQSSGGDPEIVMHSFNCGGEFFFCDTTKLFNSTWSNNGTWNSTNSTVGNDTITLPCRMKQIINMWQEVGKAMYAPPISGQIRCSSNITGLLLTRDGGKVNSTNETFRPGGGDMRDNWRSELYKYKVVKIKPLGIAPTKAKRRVVQREKRAVGIGAVFLGFLGAAGSTMGAASVTLTVQARLLLSGIVQQQNNLLRAIEAQQHLLQLTVWGIKQLQARVLAVERYLQDQQLLGIWGCSGKLICTTAVPWNTSWSNKTYKGIWENMTWMQWEKEIDNYTGLIYNLIEESQNQQEKNEQELLELDKWASLWNWFSITQWLWYIKLFVMIVGGLIGLRIVMTILSIVNRVRKGYSPLSFQTHLPTPRGPDRPEGTEEEGGERERDRSERLVNGFLALIWDDLRSLCLFSYHRLRDLILVVTRIVELLGRRGREVLKYWWNLLQYWGQELRNSAVSLLDAIAIAVAGGTDRIIEGVQRVCRAIRHIPRRIRQGAERALV
# What was measured:
# antibody 10-1074 [1] = experiment: neutralization IC50; higher = virus less sensitive to the antibody
# Method: (§1)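 Pseudovirus bearing the Env chain mixed with antibody, from 50 µg/ml in fivefold dilutions, on TZM-bl reporter cells, in duplicate.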
# antibody 3BNC117 [2] = experiment: as above
# Method: as §1
# antibody 10-1074 [3] = experiment: neutralization IC80; higher = virus less sensitive to the antibody
# Method: as §1
# antibody 3BNC117 [4] = experiment: as above
# Method: as §1
Binder,neutralization IC50 (antibody 10-1074 [1]),neutralization IC50 (antibody 3BNC117 [2]),neutralization IC80 (antibody 10-1074 [3]),neutralization IC80 (antibody 3BNC117 [4])
B1,< 0.001 µg/mL,0.041 µg/mL,0.003 µg/mL,> 50 µg/mL
B2,< 0.001 µg/mL,0.005 µg/mL,0.001 µg/mL,2.9 µg/mL
B3,> 50 µg/mL,0.246 µg/mL,> 50 µg/mL,0.848 µg/mL
B4,> 50 µg/mL,0.139 µg/mL,> 50 µg/mL,0.947 µg/mL
B5,0.003 µg/mL,0.04 µg/mL,0.01 µg/mL,0.186 µg/mL
B6,< 0.001 µg/mL,0.007 µg/mL,0.007 µg/mL,0.036 µg/mL
